# Sequence variants of PSTVd loop 15 after infection

PSTVd intermediate strain, loop 15: wild type GGAAACCGCUACUAC, pool pattern GGAAACCGNNNNNNC; upper and lower strand joined, each 5' to 3', the first 7 letters being the upper strand, closing pairs included.

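Three N. benthamiana plants were inoculated with the whole mutant pool. Progeny were sequenced from the inoculated region (day 5), the margin of the inoculated leaf (day 10) and systemic leaves (day 12).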

Values are reads per thousand in the sample; higher means more abundant, 0 means not found. Each value is the mean of three plants. "Pool" is the share in the plasmid pool used as inoculum, on the same scale. The inoculated region was read from the minus strand, the other sites from the plus strand. Sequences that differ at fixed positions probably stem from PCR or sequencing errors, and defective variants can be carried along by functional ones.

sequence	pool	inoculated region	leaf margin	systemic leaves
GGAAACCGUAAUCGC	0.272	0.0750	0.00668	0
GGAAACCGCCCUUAC	0.208	0.432	0.117	0.0711
GGAAACCGGUUGGAC	0.208	0.0787	0.0134	0
GGAAACCGAUCGCGC	0.288	0.0526	0.0215	0
GGAAACCGACUUGGC	0.192	0.108	0.0216	0
GGAAACCGAGUAUAC	0.352	0.431	0.877	0.0718
GGAAACCGAAAGGUC	0.256	0.262	0.121	0.0322
GGAAACCGUAAACGC	0.192	0.111	0.0208	0
GGAAACCGAGUCGAC	0.160	0.0623	0.646	0
GGAAACCGACUGCCC	0.304	0.0998	0.00668	0
GGAAACCGCAAUAGC	0.192	0.0893	0.00539	0
GGAAACCGCGAUCAC	0.192	0.348	0.0813	0.0483
GGAAACCGCAGUCAC	0.304	0.0568	0	0
GGAAACCGUUUUCAC	0.160	0.0893	0.00539	0
GGAAACCGGGCAGCC	0.288	0.114	0.00539	0
GGAAACCGAAGAGGC	0.128	0.0415	0.00668	0.00537
GGAAACCGCUCCGGC	0.144	0.0848	0.00668	0.0107
GGAAACCGCUAAAUC	0.192	0.213	0	0.0104
GGAAACCGGAUGGUC	0.288	0.100	0.0134	0
GGAAACCGGCACUUC	0.224	0.343	0.122	0.0161
GGAAACCGGGGCCAC	0.224	0.0912	0.00742	0
GGAAACCGGGCUAAC	0.224	0.109	0.0141	0
GGAAACCGUGAGGCC	0.288	0.0787	0.0141	0
GGAAACCGGCGUUCC	0.112	0.0811	0.0121	0
GGAAACCGUAGAUGC	0.352	0.0922	0.00539	0
GGAAACCGGUCAAAC	0.304	0.0955	0.0182	0
GGAAACCGUCGGUAC	0.192	0.331	0.151	0.0354
GGAAACCGGAAAUUC	0.400	0.419	0.101	0.0215
GGAAACCGGGAUCCC	0.240	0.0679	0.0121	0
GGAAACCGGUGAGAC	0.144	0.109	0.00539	0
GGAAACCGCAAGCAC	0.224	0.257	0.157	0.0291
GGAAACCGAGACUCC	0.240	0.137	0.00668	0.00504
GGAAACCGUAGCACC	0.112	0.0514	0.00539	0
GGAAACCGGAUCGGC	0.176	0.0913	0.0162	0
GGAAACCGCGAGUAC	0.192	0.365	0.0590	0.0161
GGAAACCGUCUACCC	0.256	0.126	0.0187	0
GGAAACCGAAGCAGC	0.208	0.0848	0.0195	0
GGAAACCGUAUCUGC	0.224	0.0876	0.0128	0
GGAAACCGCGUACGC	0.144	0.141	0	0
GGAAACCGACGUGUC	0.304	0.141	0	0
GGAAACCGAUAAUGC	0.288	0.235	0.0833	0.0717
GGAAACCGCGUCUAC	0.240	0.362	0.115	0.0107
GGAAACCGUCGUGUC	0.0960	0.165	0.00668	0
GGAAACCGACGGAGC	0.192	0.0398	0	0
GGAAACCGAAAGCCC	0.256	0.0894	0.0175	0
GGAAACCGCCUGGCC	0.176	0.0744	0.0121	0
GGAAACCGAGGACUC	0.336	0.0828	0.0121	0
GGAAACCGCAGCUUC	0.176	0.113	0.00539	0
GGAAACCGUGCUUCC	0.240	0.0742	0.0241	0
GGAAACCGAUGCCCC	0.240	0.0848	0.0134	0
GGAAACCGGGUUUCC	0.208	0.0803	0.0175	0
GGAAACCGUCAAGCC	0.176	0.111	0.00668	0.00537
GGAAACCGUUAGGAC	0.112	0.416	0.105	0.0816
GGAAACCGAGGUUCC	0.176	0.111	0.00742	0
GGAAACCGUGGGGAC	0.208	0.167	0.0141	0
GGAAACCGAGAGUUC	0.304	0.421	0.101	0.0587
GGAAACCGUCAUAAC	0.192	0.347	0.124	0.0177
GGAAACCGUACCGUC	0.240	0.0875	0.00668	0
GGAAACCGGGAUUCC	0.256	0.0732	0	0
GGAAACCGCGCUUAC	0.208	0.268	0.0913	0.0259
GGAAACCGCGACACC	0.320	0.0686	0.0228	0
GGAAACCGUGACCGC	0.224	0.122	0.0121	0
GGAAACCGGCAUCAC	0.272	0.109	0.00742	0
GGAAACCGGAUUCCC	0.112	0.107	0.00668	0
GGAAACCGCGACAAC	0.208	0.293	0.112	0.0439
GGAAACCGAAAGCUC	0.288	0.0569	0.00539	0
GGAAACCGUAGAUAC	0.240	0.306	0.0605	0.0360
GGAAACCGAGUCCGC	0.240	0.0806	0.00668	0
GGAAACCGCUGCAUC	0.192	0.0695	0.0200	0
GGAAACCGCCGCCAC	0.192	0.111	0.0187	0
GGAAACCGAUAGUCC	0.224	0.371	0.118	0.0689
GGAAACCGCUCAUAC	0.304	0.327	0.138	0.0357
GGAAACCGUGGACUC	0.208	0.0832	0.0141	0
GGAAACCGACGGUAC	0.192	0.577	0.0978	0.0518
GGAAACCGUUUCCGC	0.368	0.112	0.0187	0.00760

Extract of 3 entries:

{"sequence": "GGAAACCGCUCAUAC", "pool": "0.304", "inoculated region": 0.327, "leaf margin": 0.138, "systemic leaves": 0.0357}
{"sequence": "GGAAACCGCGAGUAC", "pool": "0.192", "inoculated region": 0.365, "leaf margin": 0.0590, "systemic leaves": 0.0161}
{"sequence": "GGAAACCGAGUCGAC", "pool": "0.160", "inoculated region": 0.0623, "leaf margin": 0.646, "systemic leaves": 0}

Wild type was 33.9 per thousand in the pool and the most common sequence in every sample (inoculated region 202, 200, 159; leaf margin 724, 746, 710; systemic leaves 856, 883, 880). With 43,870-66,106 reads a sample, very low values are single reads.

The measurements come from Wu et al. 2024 (doi:10.1371/journal.ppat.1012142).